According to ChEMBL document CHEMBL3808367, “Novel HIV-1 Non-nucleoside Reverse Transcriptase Inhibitor Agents: Optimization of Diarylanilines with High Potency against Wild-Type and Rilpivirine-Resistant E138K Mutant Virus” (J Med Chem, 2016):

Assay: Selectivity index, ratio of CC50 for human TZM-bl cells to EC50 for HIV1 3B infected in human MT2 cells
Assay type: toxicity, cell-based

SMILES: Cc1cc(CCC#N)cc(C)c1Oc1cc(Nc2ccc(C#N)cc2)c(N)cc1Br
- Ratio CC50/EC50: 160000
